Results of unrelated studies side by side (data: NIAID ChemDB).

All rows: host cell toxicity; cells: CEM; endpoint: CC50

Rows are shuffled and stem from different studies.

structure | result
CC[C@@H](C)[C@@H](NC(=O)c1ccccc1SSc1ccccc1C(=O)N[C@@H](C(=O)O)[C@H](C)CC)C(=O)O | 113 µM
Cc1cn([C@@H]2O[C@@H]3CN[C@@]4(OCCOc5ccccc5)CS(=O)(=O)O[C@@]34[C@H]2O[Si](C)(C)C(C)(C)C)c(=O)[nH]c1=O | 10.4 µM
CN1c2c(-c3ccccc3)nn(CC(=O)N/N=C/c3ccc(Br)cc3)c2-c2ccccc2S1(=O)=O | 46.9 µM
NS(=O)(=O)c1ccc(NS(=O)(=O)c2ccccc2SSc2ccccc2S(=O)(=O)Nc2ccc(S(N)(=O)=O)cc2)cc1 | >100 µM
CN1c2c(-c3ccccc3)nn(CC(=O)N/N=C/c3ccc(Cl)cc3)c2-c2ccccc2S1(=O)=O | 44.9 µM
NC12CC3CC(CC(C3)C1)C2 | 315 µM
Cc1cn([C@@H]2O[C@@H]3CN[C@@]4(C(N)=O)CS(=O)(=O)O[C@@]34[C@H]2O[Si](C)(C)C(C)(C)C)c(=O)[nH]c1=O | >125 µM
O=C(c1cccc(F)c1)c1ccc2c(c1)sc(=O)n2Cc1ccccc1 | 3.1 µg/mL
CN1c2c(-c3ccccc3)nn(CC(=O)N/N=C/c3ccccc3Br)c2-c2ccccc2S1(=O)=O | 36.6 µM
Cc1cccc(C)c1N1C(=O)c2ccc(Cl)cc2C1=O | 111 µM
N#Cc1cccc(C2SCc3nc4ccccc4n32)c1 | 38.3 µM
CC(=O)N[C@@H](Cc1ccccc1)C(=O)N[C@H](C(=O)N[C@@H](CC(C)C)[C@@H](O)CC(=O)N[C@@H](CC(C)C)C(=O)N[C@@H](Cc1ccccc1)C(N)=O)C(C)C | >138 µM
CCC(=O)c1ccc2c(c1)sc(=O)n2CCN1CCOCC1 | 29 µg/mL
O=[N+]([O-])c1ccccc1C1SCc2nc3ccccc3n21 | 37.2 µM
O=C1c2ccc(Cl)cc2C(=O)N1C12CC3CC(CC(C3)C1)C2 | 110 µM
CC(C)(C)NC(=O)c1ccccc1SSc1ccccc1C(=O)NC(C)(C)C | >100 µM
S=c1[nH]c(=S)c2c3c(sc2[nH]1)CCCCC3 | >100 µM
Nc1nc2c(ncn2[C@H]2C=C[C@@H](CO)C2)c(=O)[nH]1 | 189 µg/mL
Fc1cccc(C2SCc3nc4ccccc4n32)c1 | 67.4 µM
Cc1cn([C@@H]2O[C@H](C(CO[Si](C)(C)C(C)(C)C)O[Si](C)(C)C(C)(C)C)C3(OS(=O)(=O)C=C3N)[C@H]2O[Si](C)(C)C(C)(C)C)c(=O)[nH]c1=O | >136 µM
O=C1c2ccc(O)cc2C(=O)N1C12CC3CC(CC(C3)C1)C2 | 12.4 µM
O=C(Nc1ccccc1)c1cc(S(=O)(=O)N2CCNNC2=O)c(S)cc1Cl | 197 µM
Cc1cn([C@@H]2O[C@@H]3CN[C@@]4(OCC(C)C)CS(=O)(=O)O[C@@]34[C@H]2O)c(=O)[nH]c1=O | >250 µM
Cc1cn(C2CC(CO)(CO)C2)c(=O)[nH]c1=O | >30 µg/mL
O=C(O)CNC(=O)c1ccccc1SSc1ccccc1C(=O)NCC(=O)O | >200 µM
O=C(c1cccc([N+](=O)[O-])c1)c1ccc2c(c1)sc(=O)n2Cc1ccccc1 | 4.5 µg/mL
Nc1ncnc2c1ncn2[C@H]1C[C@@H](O)[C@H](O)[C@@H]1O | 3.99 µM
CCO[C@]12CS(=O)(=O)O[C@@]13C(CN2)O[C@@H](n1cc(C)c(=O)[nH]c1=O)[C@@H]3O[Si](C)(C)C(C)(C)C | 25 µM
CCN1CCC(O)(/C=C/c2ccc(Cl)cc2)C(C(=O)/C=C/c2ccc(Cl)cc2)C1 | 9.4 µg/mL
O=C(NC12CC3CC(CC(C3)C1)C2)c1ccc([N+](=O)[O-])cc1 | 90.7 µM
Cc1cn([C@@H]2O[C@H](C(COC(=O)c3ccccc3)OC(=O)c3ccccc3)C3(OS(=O)(=O)C=C3N)[C@H]2O[Si](C)(C)C(C)(C)C)c(=O)[nH]c1=O | 3.9 µM
CCOc1cc(/C=N/NC(=O)Cn2nc(-c3ccccc3)c3c2-c2ccccc2S(=O)(=O)N3C)ccc1O | <1 µM
Cc1cc(S(=O)(=O)N2CCNNC2=O)c(S)cc1Cl.O | 94.2 µM
CN1c2c(-c3ccccc3)nn(CC(=O)N/N=C/c3ccc(Cl)cc3Cl)c2-c2ccccc2S1(=O)=O | >100 µM
O=C(N[C@@H](CO)C(=O)O)c1ccccc1SSc1ccccc1C(=O)N[C@@H](CO)C(=O)O | >100 µM
O=C(c1ccc(Cl)c(Cl)c1)c1ccc2[nH]c(=O)sc2c1 | 6.8 µg/mL
Cc1cn([C@@H]2O[C@@H]3CN[C@@]4(OCc5ccccc5)CS(=O)(=O)O[C@@]34[C@H]2O[Si](C)(C)C(C)(C)C)c(=O)[nH]c1=O | 20.4 µM
CN1c2c(-c3ccccc3)nn(CC(=O)N/N=C/c3cccc(Br)c3)c2-c2ccccc2S1(=O)=O | 17.6 µM
CCOC(=O)C1=C(C)NC(=O)NC1c1ccc(OC)cc1 | >5 µM
CN(C)c1ccc(/C=N/NC(=O)Cn2nc(-c3ccccc3)c3c2-c2ccccc2S(=O)(=O)N3C)cc1 | >100 µM
Cc1cccc(NC(=O)c2ccccc2SSc2ccccc2C(=O)Nc2cccc(C)c2)c1 | 44 µM
O=C1c2ccc([N+](=O)[O-])cc2C(=O)N1C12CC3CC(CC(C3)C1)C2 | >304 µM
Cc1ccc(NC(=O)c2ccccc2SSc2ccccc2C(=O)Nc2ccc(C)cc2)cc1 | 28 µM
Cc1cn([C@@H]2O[C@@H]3CN[C@@]4(C(N)=O)CS(=O)(=O)O[C@@]34[C@H]2O)c(=O)[nH]c1=O | >250 µM

CCn is the concentration with n% toxicity to the cells.